Anti-infective test results gathered from many reports (values: NIAID ChemDB through PubChem).

All rows: growth or infection tests; agent: Hepatitis C virus; measure: inhibition

Lines come from different laboratories, so protocols vary. Percent inhibition refers to the dose given; in toxicity tests it is the harm to the cells. Blank or dashed fields: not listed here.

smiles | strain | cell line | method | dose | result
CC(C)OC(=O)[C@H](C)N[P@](=O)(OC[C@H]1O[C@@H](n2ccc(=O)[nH]c2=O)[C@](C)(F)[C@@H]1O)Oc1ccccc1 | 1b Con1 | Huh7 | luciferase / replicon | 0.24 µM | 86.53%
CC(=N/O)/C(C)=N/O | sg2a (JFH) | Huh7-1 | PCR | 50 µM | <75%
CN1C(=O)C(c2c[nH]c3ccccc23)=C(c2c[nH]c3ccccc23)C1=O |  | Huh7.5.1 |  | 1 µM | 81%
CCCCn1cnc2c(c(CC#N)nn2-c2ccccc2)c1=N | sg1b | Huh7-1 | PCR | 50 µM | <75%
CCCC(NC(=O)[C@@H]1C2CCC(F)(F)C2CN1C(=O)[C@@H](NC(=O)[C@@H](NC(=O)c1cnccn1)C(C)C)C(C)C)C(=O)C(=O)NC1CC1 |  | Huh7 | replicon | 25 µM | 64%
Cc1cc(N2CCOCC2)nc2ccc(Cc3ccc4nc(N5CCOCC5)cc(C)c4c3)cc12 | sg1b | Huh7-1 | PCR | 50 µM | <75%
CCCC(NC(=O)[C@@H]1C2CC[C@@H](F)C2CN1C(=O)[C@@H](NC(=O)[C@@H](NC(=O)c1cnccn1)C(C)C)C(C)C)C(=O)C(=O)NC1CC1 |  | Huh7 | replicon | 25 µM | 84%
Cc1cc(N2CCCCC2)nc2ccc(Cc3ccc4nc(N5CCCCC5)cc(C)c4c3)cc12 | sg1a (H77) | Huh7-1 | PCR | 50 µM | <75%
O=c1cc(Sc2c(Cl)cccc2Cl)c2cc(F)ccc2o1 |  | Ava5 |  | 10 µM | 92%
CCCCCCCCCCCCCCCc1cccc(O)c1C(=O)O | JFH-1 (gt 2a) | Huh7 | luciferase | 7.5 µM | 70%
CO[C@H]1[C@@H](O)[C@@H](C)O[C@H](O[C@H]2[C@H](Oc3cccc4c(O)c5c(=O)oc6ccc(C)c7c(=O)oc(c34)c5c67)O[C@H](C)[C@H](O)[C@@H]2O)[C@@H]1O | sg1b | Huh7-1 | PCR | 50 µM | <75%
Nc1ncnc2c1ncn2[C@@H]1O[C@H](CO)[C@@H](O)[C@H]1O |  | Huh7 | replicon | 50 µM | 85.8%
O=c1c(O)c(-c2ccc(O)cc2)oc2cc(O)cc(O)c12 | G1 | Huh7 | PCR | 0.1 µM | 35%
C[C@@]1(O)[C@H](O)[C@@H](CO)O[C@H]1c1c[nH]c2c(N)ncnc12 |  | HeLa-5B | MTT | 50 µg/mL | 1.07%
Cc1cc(C)cc(Sc2c(Sc3ccc(F)cc3Cl)c3ccccc3oc2=O)c1 |  | Ava5 |  | 10 µM | 61%
Nc1ncnc2c1ncn2[C@H]1C[C@H](O)[C@@H](CO)O1 |  | Huh7 | replicon | 50 µM | 90.6%
COC(=O)N[C@H](C(=O)N1CCC[C@H]1c1ncc(-c2ccc(-c3ccc(-c4cnc([C@@H]5CCCN5C(=O)[C@@H](NC(=O)OC)C(C)C)[nH]4)cc3)cc2)[nH]1)C(C)C | 1b Con1 | Huh7 | luciferase / replicon | 0.00008 µM | 95.85%
CC(=O)OC1CCC2(C)C(CCC3C2CC(=O)C2(C)C3CC(N3CC3)C2C(C)=O)C1 | sg2a (JFH) | Huh7-1 | PCR | 50 µM | <75%
Cc1cn([C@H]2C[C@H](O)[C@@H](CO)O2)c(=O)[nH]c1=O |  | Huh7 | replicon | 50 µM | 95.8%
C[C@@]1(O)[C@H](O)[C@@H](CO)O[C@H]1n1ccc2c(N)ncnc21 |  | HeLa-5B | MTT | 10 µg/mL | 11.56%
Nc1ccn([C@H]2C[C@H](O)[C@@H](CO)O2)c(=O)n1 |  | Huh7 | replicon | 50 µM | 0%
O=c1cc(Sc2ccc(F)cc2Cl)c2cc(F)ccc2o1 |  | Ava5 |  | 10 µM | 34.5%
O=c1ccn([C@H]2C[C@H](O)[C@@H](CO)O2)c(=O)[nH]1 |  | Huh7 | replicon | 50 µM | 90.3%
CC[C@H](C)C(=O)O[C@H]1C[C@@H](C)C=C2C=C[C@H](C)[C@H](CC[C@@H]3C[C@@H](O)CC(=O)O3)[C@H]21 |  | HUH7-K2040 |  | 10 µM | ~25%
O=C1NC(=O)C(c2c[nH]c3ccccc23)=C1c1c[nH]c2ccccc12 |  | Huh7.5.1 |  | 1 µM | 70%
NC(=O)c1ncn([C@@H]2O[C@H](CO)[C@@H](O)[C@H]2O)n1 |  | Ava5 |  | 100 µM | 89%
O=c1c(O)c(-c2ccc(O)c(O)c2)oc2cc(O)cc(O)c12 | G1 | Huh7 | PCR | 0.5 µM | 52%
CCCC(NC(=O)[C@@H]1[C@@H]2CCC[C@@H]2CN1C(=O)[C@@H](NC(=O)OC(C)C)C(C)C)C(=O)C(=O)N[C@@H](C)c1ccccc1 |  | Huh7 | replicon | 50 µM | 7%